PubChem BioAssay AID504761 – Drosophila RNAi Screening Center | 2011
Test: 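Genome-wide fly cell screen for genes dengue virus requires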 (primary screen). Cell system: D.Mel-2 cells from Drosophila. Reagent: long dsRNA against Drosophila genes. Treatment: infection with dengue virus type 2; dose and infection time not stated. Read-out: 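Per well on two replicate plates, imaging gave the percent of cells positive for viral envelope protein, ranked by infection, and a nuclear count of cells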. Scale: infection score: higher = more virus-infected cells; cell count: higher = more cells in the well. Call rule: 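Low infection ranks in the two replicates (chance level up to 0.065) followed by a retest with a 1.5-fold or larger significant decrease, p below 0.05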. Calls: active = confirmed: knock-down lowers infection; inactive = not picked or not confirmed.
In all, the deposit lists about 22,000 reagents; this is an unselected part of those with a known target gene and a result. Over the whole deposit, 116 (0.52%) were called active. 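Calls depend on retest data that are not deposited; infection was ranked per plate without normalising between plates; the unit of the infection score is not given.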 The raw values are shown without normalisation. The numbers tell different reagents against one gene apart. A plus sign joins genes that one reagent is predicted to hit. The record does not give: the amount of reagent, the time to read-out.

Gene,dsRNA no.,"infection score, replicate 1","infection score, replicate 2","cell count, replicate 1","cell count, replicate 2",activity call
hppy,1,2.47,1.79,6474,6799,inactive
hppy,2,2.08,3.26,6683,6509,inactive
hppy,3,1.72,1.22,6286,6236,inactive
hppy,4,7.89,13.8,6375,5781,inactive
CAH3,1,3.13,1.29,6451,6355,inactive
CG7423,1,5.08,1.22,6261,5322,inactive
CG32104,1,3.97,6.81,6298,6329,inactive
CG32104,2,3.07,4.96,5314,6595,inactive
CG4836,1,7.63,2.18,6767,6295,inactive
CG4836,2,3.24,0.88,6349,6135,inactive
CG6154,1,1.09,4.04,6516,6216,inactive
CG6154,2,10.5,2.96,6123,742,inactive
Ugt36A1 + CG15418,1,1.36,1.28,6257,6495,inactive
Ugt36A1 + CG15418,2,2.39,2.23,6114,6323,inactive
fd96Ca,1,2.1,9.8,6134,3297,inactive
fd96Ca,2,0.87,1.55,6471,6054,inactive
Atg1,1,7.81,4.9,6657,6668,inactive
Atg1,2,0.4,3.97,6238,6089,inactive
Lcp65Ab2 + Lcp65Ab1,1,2.18,3.11,5885,5761,inactive
Lcp65Ab2 + Lcp65Ab1,2,1.03,6.22,6186,6111,inactive
Lcp65Ab2 + Lcp65Ab1,3,15.3,3.46,6569,5890,inactive
UK114,1,4.38,5.02,6399,6911,inactive
mRpS5,1,1.17,14.5,5552,4139,inactive
CG6209,1,26.9,7.4,4829,6477,inactive
CG6209,2,19.6,20.4,5947,5569,inactive
PHDP,1,11.7,14.4,2745,5397,inactive
Cdc2rk,1,21.9,12.8,5730,5415,inactive
Cdc2rk,2,5.36,3.71,6009,6498,inactive
ND-42,1,3.6,3.92,6444,6601,inactive
ND-42,2,1.86,2.87,5973,5861,inactive
ey,1,9.27,1.19,4972,5815,inactive
ey,2,7.16,3.6,3074,5854,inactive
CG14857,1,3.93,14.5,6689,6298,inactive
flw,1,9.58,5.11,4790,1448,inactive
flw,2,7.28,28.3,6166,5831,inactive
flw,3,2.05,6.67,5991,5903,inactive
Fak,1,2.1,2.53,6518,6731,inactive
Fak,2,2,1.79,6402,6696,inactive
Dsor1,1,1.04,6.83,5266,5254,inactive
Dsor1,2,2.32,3.21,6681,7193,inactive
bbg,1,0.53,1.63,6268,6265,inactive
bbg,2,1.2,2.37,6064,6212,inactive
bbg,3,19.2,14.1,6360,6588,inactive
bbg,4,2.54,23.1,984,5359,inactive
CG4914,1,0.49,1.6,6135,6075,inactive
a6,1,3.76,2.12,5697,6266,inactive
CG1941,1,14.3,7.78,5911,2043,inactive
CG12118,1,3.76,2.05,6774,6438,inactive
CR31541 (retired record),1,1.28,3.67,6887,6177,inactive
CR31541 (retired record),2,0.65,1.06,6008,6042,inactive
CG13398,1,2.87,5.26,6387,1540,inactive
CG12684,1,,,422,407,inactive
APP-BP1,1,1.65,2.67,5708,6057,inactive
Ptp10D,1,3.92,2.45,6472,6205,inactive
Amun,1,14,10.9,5769,6120,inactive
Amun,2,,12.1,508,6291,inactive
blow,1,34.4,35.5,5938,5903,inactive
blow,2,3.43,14.6,6879,5780,inactive
DCTN3-p24,1,9.56,28.3,6443,5634,inactive
DCTN3-p24,2,4.53,7.24,2184,6039,inactive
CG9044,1,3.12,16.4,6192,5331,inactive
Mcr,1,5.02,2.65,6034,6833,inactive
CG6685,1,8.96,7.72,5600,6369,inactive
CG12239,1,7.4,5.27,6084,6400,inactive
CG12239,2,6.68,17.7,6358,4602,inactive
psh,1,2.59,6.47,6254,6589,inactive
psh,2,3.36,27.5,745,6558,inactive
Tmep,1,14.7,3.97,5277,1057,inactive
Tmep,2,5.5,11.5,6278,6462,inactive
CG15111,1,1.66,1.66,6737,6791,inactive
CG6607,1,14.8,25.6,3650,4244,inactive
CG2962,1,23.9,6.5,3105,6783,inactive
CG2962,2,2.23,6.75,6310,6252,inactive
CG12499,1,22.5,3.07,4811,6293,inactive
